Reference: PubChem BioAssay AID602314 (ICCB-Longwood Screening Facility, Harvard Medical School, 2012)
The list shows a part of the results, in another mix than the full data. Activity calls are given as the source filed them. No stated cut-off is given here; in the data, active means inhibition above about 30% (passing the limit was not always enough); inactive means the rest.

What follows are compounds tested on MgrA (MarR family transcriptional regulator), Staphylococcus aureus Newman (assay: modulators of MgrA DNA binding – biochemical, S. aureus Newman, fluorescence polarization, primary screen (AID 602314;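 further: 0% = protein plus DNA without compound and 100% = DNA alone without protein; higher means less MgrA bound to DNA so lower polarization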)). Details: active compounds read high, concentration not given here.
`CC(=O)OC1(C#N)CN2CCC1CC2` (centres undefined) was tested, and the inhibition was inactive: -1.75%.
For `C/C1=C2N=C(/C=C3N=C(/C(C)=C4\[N-][C@@](C)([C@@H]5N=C1[C@](C)(CCC(=O)NC[C@@H](C)OP(=O)([O-])O[C@H]1[C@@H](O)[C@@H](n6cnc7cc(C)c(C)cc76)O[C@@H]1CO)[C@H]5CC(N)=O)[C@@](C)(CC(N)=O)[C@@H]4CCC(N)=O)[C@@](C)(CC(N)=O)[C@@H]\3CCC(N)=O)C(C)(C)[C@@H]/2CCC(N)=O.[C-]#N.[Co+3]`, the inhibition was inactive: -0.85%.
In the case of `CC(=O)OC1CN2CCC1C(c1ccccc1)C2` (centres undefined), the inhibition is reported as inactive: -3.2%.
`O=C(OCCN1CCN(CCOCc2ccccc2)CC1)C(O)(c1ccccc1)c1ccccc1` was tested, and the inhibition was inactive: -6.6%.
In the case of `O=P1(Nc2nc3ccc(Cl)cc3s2)COc2ccccc2O1` (centres undefined), the inhibition is reported as inactive: -0.4%.
With `COc1cc2c(cc1NP(C)(=O)Oc1ccccc1)oc1ccccc12` (centres undefined) the inhibition was inactive: 1.55%.
With `O=C(OC1CN2CCC1CC2)c1ccccc1` (centres undefined) the inhibition was inactive: -1%.
For `O=C(OC1/C(=C/c2ccccc2F)N2CCC1CC2)c1ccccc1` (centres undefined), the inhibition was inactive: -0.8%.
For `CN(C)C(=O)Oc1noc2ccccc12`, the inhibition was inactive: 0.5%.
With `CN(C(=O)Cc1ccc(Cl)c(Cl)c1)[C@H]1CCCC[C@@H]1N1CCCC1` the inhibition was inactive: 0.2%.
With `CCOP(=Nc1nc2ccccc2n2nnnc12)(OCC)OCC` the inhibition was inactive: 0.65%.
For `CP(=O)(Nc1ccccn1)Oc1ccccc1` (centres undefined), the inhibition was inactive: -1.15%.
In the case of `CCOP(OCC)N1CCOCC1`, the inhibition is reported as inactive: 7.35%.
For `CP(=O)(Nc1ccc(Cl)cc1)Oc1ccc(F)cc1` (centres undefined), the inhibition was inactive: -0.1%.
For `CCc1nc2c(n1)c1c(non1O)c1c2no[n+]1[O-]`, the inhibition was inactive: -1.85%.
In the case of `OCCSCCO`, the inhibition is reported as inactive: 0.35%.
With `CP(=O)(Nc1ccc(Cl)cc1)Oc1ccccc1` (centres undefined) the inhibition was inactive: -1.05%.
With `COc1ccccc1OP(C)(=O)Nc1ccccc1` (centres undefined) the inhibition was inactive: -3.6%.
With `O=C(O)CCC(=O)N=S(c1ccccc1)c1ccccc1.O=[N+]([O-])c1cc([N+](=O)[O-])c(O)c([N+](=O)[O-])c1` the inhibition was inactive: -1.05%.
With `CCn1cccc/c1=N\P1(=S)OCCO1` the inhibition was inactive: -0.75%.
`CN(C)P1(=O)Nc2ccccc2S1` (centres undefined) was tested, and the inhibition was inactive: 5.65%.
For `O=C(OC1CN2CCC1CC2)C12CC3CC(CC(C3)C1)C2` (centres undefined), the inhibition was inactive: 0.35%.
In the case of `Cc1cc(C)cc(OP(C)(=O)NCc2ccccc2)c1` (centres undefined), the inhibition is reported as inactive: 0.75%.
`Nc1nonc1OCCOc1nonc1N` was tested, and the inhibition was inactive: 1.45%.
`CC1=Nc2ccc(C(F)(F)F)cc2C1(C)C` was tested, and the inhibition was inactive: 0.45%.
In the case of `NC(=O)Nc1ccc([As](=O)(O)O)cc1`, the inhibition is reported as inactive: 1.7%.
`CC1(C)Nc2ccccc2OP1(=O)c1ccccc1` (centres undefined) was tested, and the inhibition was inactive: -3.3%.
`O=C(OC1CN2CCC1CC2)c1ccc(Cl)cc1` (centres undefined) was tested, and the inhibition was inactive: -2%.
With `Cc1cccc(OCC(=O)OC2CN3CCC2CC3)c1` (centres undefined) the inhibition was inactive: -0.65%.
`COc1cc(-n2cnnn2)ccc1-n1cnnn1` was tested, and the inhibition was inactive: 2.95%.
`O=P1(Nc2ccccn2)COc2ccccc2OC1` was tested, and the inhibition was inactive: 1.6%.
`Cc1cc(C)cc(OP(C)(=O)Nc2ccc(OC(C)C)cc2)c1` (centres undefined) was tested, and the inhibition was inactive: 0.8%.
For `CC1(C)COP(=S)(N(C2=NCCC2)c2ccccc2)OC1`, the inhibition was inactive: 2.7%.
In the case of `Cc1ccc(C(=O)OC2CN3CCC2CC3)cc1` (centres undefined), the inhibition is reported as inactive: -1.3%.
